Assay results reported in patent US9669001B2, “Antimicrobial composition” (CONVATEC TECHNOLOGIES INC., priority 2008, dated 2017).
“And” between values parts separate entries of the source, which are not always exact repeats. Identical values can stand only once.

System: P. aeruginosa biofilms
Test: Uptake of photo-catalyst by CDFF biofilms measured by colorimetric spectroscopy (SpectroEye)
Type: cell-based
Conditions: 10 minutes, listed as RB

O=C1OC2(c3cc(I)c(O)c(I)c3Oc3c2cc(I)c(O)c3I)c2c(Cl)c(Cl)c(Cl)c(Cl)c21 [Rose Bengal, 4,5,6,7-Tetrachloro-3′,6′-dihydroxy-2′,4′,5′,7′-tetriodo-3H-spiro[isobenzofuran-1,9′-xanthen]-3-one]
RB contained in biofilm (biofilm immersed in 125 μM RB in saline, from standard curve, one value per biofilm sample): 136.48 µM and 120.85 µM and 111.10 µM and 134.99 µM and 123.95 µM and 120.17 µM | Mean uptake (mean of 6 biofilm samples, 125 μM RB in saline): 125 µM and 124.6 ± 9.6 µM
